A mixed list of measured activities; the numbers were collected in NIAID ChemDB.

Shared fields: tests in culture; agent: HIV-1; read by: luciferase / reporter gene; endpoint: EC50

Conditions beyond the fields shown may differ between rows. ECn is the concentration giving n% inhibition of infection, replication or growth. Two numbers with a dash give a range or band. An empty or dashed field is not shown.

| SMILES | conditions | strain | cell line | value |
|---|---|---|---|---|
| Cc1nc2ccc(Cl)cc2c(-c2cc3ccccc3s2)c1C(OC(C)C)C(=O)O |  |  | C8166 | <20 µM |
| CC(Oc1cccc2ncccc12)C(=O)N1CCC(=C(c2ccccc2)c2cccnc2)CC1 |  |  | HeLa CD4 | >1 µM |
| CC1CN(C(=O)c2ccccc2)CCN1C(=O)C(=O)c1c[nH]c2cccc(F)c12 | pseudotyped | LAI | HeLa | 0.00056 µM |
| Cc1nnc(C(=O)N2CCC3(CC2)NCCn2c3nc(C(=O)NCc3ccc(F)cc3)c(O)c2=O)o1 |  | NL4-3 | MT-2 | 0.01–0.1 µM |
| CC1CN(C(=O)c2ccccc2)CC(C)N1C(=O)C(=O)c1c[nH]c2cccc(F)c12 | pseudotyped | LAI | HeLa | 0.0033 µM |
| COC(=O)N1CCC2(CC1)COCCn1c2nc(C(=O)NCc2ccc(F)cc2-n2ncnc2C)c(O)c1=O |  | NL4-3 | MT-2 | 0.01–0.1 µM |
| COc1cccc2[nH]cc(C(=O)C(=O)N3CCN(C(=O)c4ccccc4)C[C@@H]3C)c12 | pseudotyped | LAI | HeLa | 0.00333 µM |
| C[C@@H]1CN(C(=O)c2ccccc2)CCN1C(=O)C(=O)c1c[nH]c2c(NC(=O)Nc3ccc(C#N)cc3)cccc12 |  |  | HeLa | <1 µM |
| O=C(C(=O)N1CCN(C(=O)c2ccccc2)CC1)c1cnc2ccccc2n1 |  |  | HeLa | <1 µM |
| CCCC(C(=O)O)c1c(C)nc2ccc(Cl)cc2c1-c1ccc(OC)cc1C |  |  | C8166 | <20 µM |
| CC1CN(C(=O)c2ccccc2)CCN1C(=O)[C@@H](O)c1ccc2ccccc2c1 |  |  | HeLa | 1–5 µM |
| CCOC(=O)c1cccc(NC(=O)Nc2cccc3c(C(=O)C(=O)N4CCN(C(=O)c5ccccc5)C[C@H]4C)c[nH]c23)c1 |  |  | HeLa | <1 µM |
| CCCC1CN(C(=O)C(=O)c2c[nH]c3cccc(F)c23)CCN1C(=O)c1ccccc1 | pseudotyped | LAI | HeLa | 0.00355 µM |
| Cc1nc2ccc(Cl)cc2c(-c2ccc(CF)cc2)c1[C@H](OC(C)(C)C)C(=O)O |  |  | C8166 | <20 µM |
| O=C(c1ccccc1)N1CCN(C(=O)c2c[nH]c3cccc(F)c23)CC1 |  |  | HeLa | <1 µM |
| CC1CN(C(=O)c2ccccc2)CCN1C(C#N)C(=O)c1ccc2cc(Br)ccc2n1 |  |  | HeLa | <1 µM |
| COC(=O)c1ccc(OC(C)C(=O)N2CCC(=C(C#N)c3ccccc3)CC2)c(OC)c1 |  |  | HeLa CD4 | ≤1 µM |
| CCCCNc1c(C(=O)C(=O)N2CCN(C(=O)c3ccccc3)C[C@H]2C)cnc2c1cnn2CC |  |  | HeLa | <1 µM |
| CS(=O)(=O)N1CCC2(CC1)OCCn1c2nc(C(=O)NCc2ccc(F)cc2)c(O)c1=O |  | NL4-3 | MT-2 | 0.001–0.01 µM |
| CC(=O)OCC(=O)Nc1cccc2c(C(=O)C(=O)N3CCN(C(=O)c4ccccc4)C[C@H]3C)c[nH]c12 |  |  | HeLa | <1 µM |
| C[C@H]1CN(C(=O)c2ccccc2)CCN1C(C#N)C(=O)c1ccc2ccccc2n1 |  |  | HeLa | <1 µM |
| CNC(=O)c1ccc(F)c2c(C(=O)C(O)N3CCN(C(=O)c4ccccc4)CC3)c[nH]c12 |  |  | HeLa | <1 µM |
| COc1cnc(-n2cnc(C)n2)c2[nH]cc(C(=O)C(=O)N3C/C(=C(\C#N)c4ccccc4)CCN3)c12 |  | LAI | MT-2 | 0.02562 µM |
| CN(C)C(=O)N1CCC2(CC1)OCCn1c2nc(C(=O)NCc2ccc(F)cc2)c(O)c1=O |  | NL4-3 | MT-2 | 0.001–0.01 µM |
| COC(=O)c1ccc(OC(C)C(=O)N2CCC(=C(c3ccccc3)c3nnc(C)o3)CC2)c(OC)c1 |  |  | HeLa CD4 | ≤1 µM |
| Cc1nc2ccc(Cl)cc2c(-c2cccnc2)c1C(OC(C)C)C(=O)O |  |  | C8166 | <20 µM |
| COc1cnc(-n2cnc(C)n2)c2[nH]cc(C(=O)C(=O)N3CCc4c(ncnc4-c4ccccc4)N3)c12 |  | LAI | MT-2 | <0.5 µM |
| O=C(C(=O)N1CCN(C(=O)c2ccccc2)CC1)c1ccc2ccccc2n1 |  |  | HeLa | <1 µM |
| COc1ccc(-c2c(C(OC(C)C)C(=O)O)c(C)nc3ccc(Cl)cc23)cc1 |  |  | C8166 | <20 µM |
| C[C@@H]1CN(C(=O)c2ccccc2)CCN1C(=O)C(=O)c1c[nH]c2c(NS(=O)(=O)N(C)C)cccc12 |  |  | HeLa | <1 µM |
| CCCC(C)(C)OC(C(=O)O)c1c(C)nc2ccc(Cl)cc2c1-c1ccc(Cl)cc1 |  |  | C8166 | <20 µM |
| C[C@@H]1CN(C(=O)c2ccccc2)CCN1C(=O)C(=O)c1c[nH]c2cccc(F)c12 | pseudotyped | LAI | HeLa | <0.00016 µM |
| CCCCNc1c(C(=O)C(=O)N2CCN(C(=O)c3ccccc3)CC2)cnc2c1cnn2CC |  |  | HeLa | >5 µM |
| CCc1ccc(-c2c(C(OC(C)(C)C)C(=O)O)c(C)nc3ccc(Cl)cc23)cc1 |  |  | C8166 | <20 µM |
| O=C(C(=O)N1CCN(C(=O)c2ccccc2)CC1)c1csc2ccccc12 |  |  | HeLa | 1–5 µM |
| N#CC(=C1CCN(C(=O)C(=O)c2c[nH]c3c(NC(=O)Nc4cccc(C(=O)O)c4)cccc23)CC1)c1ccccc1 |  |  | HeLa | <1 µM |
| CCc1ccc(-c2c(C(Oc3ccccc3)C(=O)O)c(C)nc3ccc(Cl)cc23)cc1 |  |  | C8166 | <20 µM |
| COc1cccc2[nH]cc(C(=O)C(=O)N3CCN(C(=O)c4ccccc4)CC3C)c12 | pseudotyped | LAI | HeLa | 0.00157 µM |
| O=C(NCc1ccc(F)cc1-n1cncn1)c1nc2n(c(=O)c1O)CCOC21CCN(C(=O)c2ccccc2)CC1 |  | NL4-3 | MT-2 | 0.001–0.01 µM |
| COc1ccc2cc(CC(=O)N3CCN(C(=O)c4ccccc4)C[C@H]3C)ccc2c1 |  |  | HeLa | <1 µM |
| CC(C)C1CN(C(=O)C(=O)c2c[nH]c3cccc(F)c23)CCN1C(=O)c1ccccc1 | pseudotyped | LAI | HeLa | 0.0233 µM |
| CN(C)C(=O)C(=O)N1CCC2(CC1)NCCn1c2nc(C(=O)NCc2ccc(F)cc2)c(O)c1=O |  | NL4-3 | MT-2 | 0.01–0.1 µM |
| COc1cnc(-n2cnc(C)n2)c2[nH]cc(C(=O)C(=O)N3CC/C(=C(\C#N)c4ccccc4)CN3)c12 |  | LAI | MT-2 | 0.00029 µM |
| Cc1ncnn1-c1cc(F)ccc1CNC(=O)c1nc2n(c(=O)c1O)CCOCC21CCN(C(=O)N(C)C)CC1 |  | NL4-3 | MT-2 | 0.01–0.1 µM |
| COC(=O)c1ccc(OC(C)C(=O)N2CCC(=C(c3ccccc3)c3ccccc3)CC2)c(OC)c1 |  |  | HeLa CD4 | ≤1 µM |
| COc1cccc2oc(C(=O)C(C#N)N3CCN(C(=O)c4ccccc4)CC3)cc12 |  |  | HeLa | <1 µM |
| CS(=O)(=O)N1CCC2(CC1)OCCn1c2nc(C(=O)NCc2ccc(F)cc2-n2cncn2)c(O)c1=O |  | NL4-3 | MT-2 | 0.001–0.01 µM |
| CC1CN(C(=O)c2ccccc2)CCN1C(C#N)C(=O)c1ccc2cc(O)ccc2n1 |  |  | HeLa | <1 µM |
| Cc1nnc(C(=O)N2CCC3(CC2)OCCCn2c3nc(C(=O)NCc3ccc(F)cc3-n3ncnc3C)c(O)c2=O)o1 |  | NL4-3 | MT-2 | 0.01–0.1 µM |
| COc1ccc2nc(C(=N)C(C#N)N3CCN(C(=O)c4ccccc4)CC3C)ccc2c1 |  |  | HeLa | >0.5 µM |
| COc1cccc2[nH]cc(C(=O)C(=O)N3CCN(C(=O)c4ccccc4)C[C@H]3C)c12 | pseudotyped | JR-FL | HeLa | 0.00058 µM |

Repeating the final 7 entries:

SMILES | conditions | strain | cell line | value
COC(=O)c1ccc(OC(C)C(=O)N2CCC(=C(c3ccccc3)c3ccccc3)CC2)c(OC)c1 |  |  | HeLa CD4 | ≤1 µM
COc1cccc2oc(C(=O)C(C#N)N3CCN(C(=O)c4ccccc4)CC3)cc12 |  |  | HeLa | <1 µM
CS(=O)(=O)N1CCC2(CC1)OCCn1c2nc(C(=O)NCc2ccc(F)cc2-n2cncn2)c(O)c1=O |  | NL4-3 | MT-2 | 0.001–0.01 µM
CC1CN(C(=O)c2ccccc2)CCN1C(C#N)C(=O)c1ccc2cc(O)ccc2n1 |  |  | HeLa | <1 µM
Cc1nnc(C(=O)N2CCC3(CC2)OCCCn2c3nc(C(=O)NCc3ccc(F)cc3-n3ncnc3C)c(O)c2=O)o1 |  | NL4-3 | MT-2 | 0.01–0.1 µM
COc1ccc2nc(C(=N)C(C#N)N3CCN(C(=O)c4ccccc4)CC3C)ccc2c1 |  |  | HeLa | >0.5 µM
COc1cccc2[nH]cc(C(=O)C(=O)N3CCN(C(=O)c4ccccc4)C[C@H]3C)c12 | pseudotyped | JR-FL | HeLa | 0.00058 µM